# Share of PSTVd loop 15 variants by leaf site

Reference: Wu et al. 2024, doi:10.1371/journal.ppat.1012142.

Region: loop 15 of PSTVd (intermediate strain), upper and lower strand joined, each 5' to 3', the first 7 letters being the upper strand, closing pairs included. Wild type: GGAAACCGCUACUAC. Varied positions (N): GGAAACCGNNNNNNC.

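A pool of all variants was put on leaves of three Nicotiana benthamiana plants. Progeny were sequenced from the inoculated region (day 5), the margin of the inoculated leaf (day 10) and systemic leaves (day 12).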

Values are reads per thousand in the sample; higher means more abundant, 0 means not found. Each site shows the three plants. "Pool" is the share in the plasmid pool used as inoculum, on the same scale. The inoculated region was read from the minus strand, the other sites from the plus strand. IR is the inoculated region, LM the leaf margin, Sys the systemic leaves. Sequences that differ at fixed positions probably stem from PCR or sequencing errors, and defective variants can be carried along by functional ones. With 43,870-66,106 reads a sample, very low values are single reads. For reference, wild type rose from 33.9 per thousand in the pool to 202, 200, 159 (inoculated region), 724, 746, 710 (leaf margin) and 856, 883, 880 (systemic leaves).

sequence	pool	IR	LM	Sys
GGAAACCGGCGAAUC	0.208	0.0328 0.0161 0.0190	0 0.0223 0.0200	0.0322 0 0
GGAAACCGGCGACAC	0.192	0.164 0.112 0.0762	0 0.0223 0.0200	0 0 0.0228
GGAAACCGGCGACCC	0.224	0.0819 0.193 0.133	0 0 0.0200	0.0322 0 0
GGAAACCGGCGACGC	0.160	0.0983 0.0643 0.114	0 0 0	0 0 0
GGAAACCGGCGACUC	0.224	0.0819 0.0964 0.0571	0 0 0.0200	0 0 0
GGAAACCGGCGAGAC	0.240	0.180 0.0643 0.0571	0.0162 0.0223 0.0401	0 0 0
GGAAACCGGCGAGCC	0.192	0.115 0.129 0.0190	0.0162 0 0	0 0 0
GGAAACCGGCGAGGC	0.208	0.164 0.112 0.0381	0 0 0.0200	0 0 0
GGAAACCGGCGAGUC	0.272	0.246 0.209 0.152	0.0162 0 0.0401	0.0161 0 0
GGAAACCGGCGAUAC	0.320	0.229 0.321 0.248	0.0808 0.0445 0.100	0.0483 0.0454 0.0912
GGAAACCGGCGAUCC	0.304	0.147 0.0321 0.152	0 0 0	0.0161 0 0
GGAAACCGGCGAUGC	0.288	0.0983 0.0161 0.0952	0.0162 0 0.0601	0 0 0
GGAAACCGGCGAUUC	0.272	0.131 0.112 0.0571	0.0162 0.0223 0.0401	0 0 0
GGAAACCGGCGCAAC	0.240	0.0983 0.177 0.0571	0 0 0	0 0 0.0228
GGAAACCGGCGCACC	0.256	0.0983 0.0321 0.0571	0 0 0.0200	0 0 0
GGAAACCGGCGCAGC	0.144	0.0819 0.0643 0.0952	0 0 0	0 0 0
GGAAACCGGCGCAUC	0.176	0.0655 0.129 0.133	0.0162 0.0223 0.0601	0.0161 0 0
GGAAACCGGCGCCAC	0.192	0.0983 0.0964 0.171	0.0323 0.0223 0.0200	0.0161 0 0
GGAAACCGGCGCCCC	0.240	0.0819 0.0643 0.0952	0 0 0	0 0 0
GGAAACCGGCGCCGC	0.288	0.0819 0.0964 0.0381	0 0 0.0200	0.0161 0 0
GGAAACCGGCGCCUC	0.272	0.131 0.0803 0.114	0 0.0223 0	0 0 0
GGAAACCGGCGCGAC	0.208	0.115 0.0482 0.0762	0 0.0445 0	0 0 0
GGAAACCGGCGCGCC	0.256	0.0655 0.0803 0.114	0.0162 0 0.0200	0 0 0.0228
GGAAACCGGCGCGGC	0.160	0.0983 0.112 0.209	0.0162 0.0223 0.0401	0 0 0
GGAAACCGGCGCGUC	0.224	0.0164 0.0643 0.0952	0 0 0	0 0 0
GGAAACCGGCGCUAC	0.256	0.147 0.145 0.0571	0 0 0.0401	0 0 0
GGAAACCGGCGCUCC	0.272	0.115 0.0964 0.114	0 0 0	0 0 0
GGAAACCGGCGCUGC	0.128	0.295 0.145 0.0952	0 0.0223 0.0401	0 0.0151 0
GGAAACCGGCGCUUC	0.288	0.0491 0.0643 0.0952	0.0162 0 0	0.0161 0 0
GGAAACCGGCGGAAC	0.208	0.0983 0.112 0.0952	0.0162 0 0	0 0 0
GGAAACCGGCGGACC	0.304	0.0819 0.0643 0.114	0 0 0	0 0 0
GGAAACCGGCGGAGC	0.272	0.115 0.161 0.152	0 0.0223 0	0.0161 0 0
GGAAACCGGCGGAUC	0.224	0.131 0.0643 0.0952	0 0 0.0200	0 0 0
GGAAACCGGCGGCAC	0.336	0.0819 0.0643 0.0571	0 0 0.0401	0 0 0
GGAAACCGGCGGCCC	0.208	0.164 0.0482 0.0381	0.0162 0 0	0 0 0
GGAAACCGGCGGCGC	0.160	0.0819 0.161 0.0952	0.0323 0.0445 0	0 0 0
GGAAACCGGCGGCUC	0.240	0.229 0.177 0.0952	0 0.0223 0.0401	0 0 0
GGAAACCGGCGGGAC	0.192	0.246 0.257 0.305	0 0 0.0200	0 0 0
GGAAACCGGCGGGCC	0.320	0.0328 0.0803 0.0762	0.0162 0.0223 0.0200	0 0 0
GGAAACCGGCGGGGC	0.304	0.115 0.0964 0.0952	0.0323 0 0.0200	0.0161 0 0
GGAAACCGGCGGGUC	0.272	0 0.0964 0.0571	0 0.0223 0.0200	0 0 0
GGAAACCGGCGGUAC	0.160	0.229 0.225 0.476	0.162 0.0668 0.140	0.0161 0.0151 0.0684
GGAAACCGGCGGUCC	0.208	0.180 0.145 0.0762	0 0 0.0401	0.0161 0 0
GGAAACCGGCGGUGC	0.288	0.0655 0.0964 0.0190	0.0162 0 0	0 0 0
GGAAACCGGCGGUUC	0.288	0.295 0.386 0.343	0.0970 0.111 0.0801	0.0483 0.106 0.0456
GGAAACCGGCGUAAC	0.192	0.0655 0.0803 0.0571	0.0162 0 0.0200	0 0 0
GGAAACCGGCGUACC	0.192	0.180 0.0803 0.0571	0 0.0223 0	0 0 0
GGAAACCGGCGUAGC	0.272	0.0655 0.0964 0.114	0 0 0.0200	0 0 0
GGAAACCGGCGUAUC	0.192	0.147 0.112 0.0190	0.0162 0.0223 0.0401	0 0 0
GGAAACCGGCGUCAC	0.160	0.180 0.0161 0.114	0 0 0.0601	0.0161 0 0
GGAAACCGGCGUCCC	0.384	0.131 0.112 0.0762	0 0 0	0.0161 0 0
GGAAACCGGCGUCGC	0.224	0.0819 0.112 0.228	0 0 0	0 0.0151 0
GGAAACCGGCGUCUC	0.112	0.0983 0.0964 0.0952	0 0 0	0 0 0
GGAAACCGGCGUGAC	0.304	0.115 0.0964 0.190	0 0 0.0200	0 0 0
GGAAACCGGCGUGCC	0.176	0.0983 0.145 0.0952	0 0 0.0200	0 0 0
GGAAACCGGCGUGGC	0.208	0.0983 0.112 0.133	0 0 0	0.0161 0 0
GGAAACCGGCGUGUC	0.320	0.0655 0.0964 0.114	0.0323 0 0.0200	0 0 0
GGAAACCGGCGUUAC	0.176	0.0655 0.0803 0.0762	0 0 0.0200	0.0161 0 0
GGAAACCGGCGUUCC	0.112	0.0328 0.0964 0.114	0.0162 0 0.0200	0 0 0
GGAAACCGGCGUUGC	0.336	0.164 0.0803 0.0762	0.0162 0 0.0601	0 0 0
GGAAACCGGCGUUUC	0.208	0.0819 0.0643 0.0762	0 0 0.0200	0 0 0

A selection of 5 entries from above:

{"sequence": "GGAAACCGGCGAUAC", "pool": "0.320", "IR": "0.229 0.321 0.248", "LM": "0.0808 0.0445 0.100", "Sys": "0.0483 0.0454 0.0912"}
{"sequence": "GGAAACCGGCGCGGC", "pool": "0.160", "IR": "0.0983 0.112 0.209", "LM": "0.0162 0.0223 0.0401", "Sys": "0 0 0"}
{"sequence": "GGAAACCGGCGCUCC", "pool": "0.272", "IR": "0.115 0.0964 0.114", "LM": "0 0 0", "Sys": "0 0 0"}
{"sequence": "GGAAACCGGCGCUAC", "pool": "0.256", "IR": "0.147 0.145 0.0571", "LM": "0 0 0.0401", "Sys": "0 0 0"}
{"sequence": "GGAAACCGGCGACCC", "pool": "0.224", "IR": "0.0819 0.193 0.133", "LM": "0 0 0.0200", "Sys": "0.0322 0 0"}